The exact form of at least one protein or probe is not confirmed. For some assays here: A negative result means that nothing was seen under these conditions.

Series [1] concerns the target PmrA FL (Acinetobacter baumannii) (UniProt E2FGC2). Kind of series: EMSA. The following applies: phosphorylation state not stated; EMSA: 10 mM Tris pH 7.5, 50 mM KCl, 1 mM DTT, 5% glycerol, 30 min, 1 pmol DNA in 10 ul, gel on ice; recombinant protein; protein details: N-terminal 6xHis; label: 5' biotin (forward primer); probe letters rebuilt from the primers and the genome.

For series [2] the target is unchanged. As to the kind of experiment: ITC. Conditions: ITC: 25 mM Tris pH 8.0, 150 mM NaCl, 10% glycerol, 25 C, with or without BeF3-/Mg2+ (5.3 mM BeSO4, 35 mM NaF, 7 mM MgCl2 in purification), recombinant protein, protein details: N-terminal 6xHis.

In the case of “GGCTAATCAAAGTGTACAGATTATATTTTTATTTACTATAAAATCTTATAGTTAAAGCTTATTTCTTAAAAAAATTGACTTAAATTTTATAAAAAATCAAATAAATTCAATAAATTAATTTACATCAATTGTCATAAAACCTTAAGAAAACTTTAAGTTGGAATTAAGGAAATTTCTCCATATTAAAAACGTATAGTTTTTCAGCAGCTAAGCAGAATAATTCTGTAACCCTGCCCTATGGTGGAATTTAG (double strand) [naxD promoter 251 bp]”, in series [1], the binding result is on record as “binds”.
On to “GTCTTACAAAGATAACCGTGTTGGTTTAATGGCTAAATATAGTTTCTAATAACGATTTTTTTAGCTAAAAATAGAAAAGACGAGGTTAAACTTAACCTCGTCTTTTTTTATTTGTTAAATTTAACAAATAATAATGAAATAAGGTCTCTAAATTAGATCATTTTTTATTTAAGTCATTTTTAAGTTTCAATTTCTACATTAAAGCATCATAAAAAGATTGTAGTCACTCACG (double strand) [pmrC promoter 232 bp]”, for which, in series [1], the binding result is “binds”.
On to “TACCTAGCTCATTCCTAGCTT / AACGTAGGTCATTCGTAGGTA [PAmutatedDNA 21 bp]”, for which the binding result in series [2] (BeF3- state not stated for this row) is listed as “no binding”.
For the sequence “TATTTAAGTCATTTTTAAGTT (double strand) [PAbindingDNA 21 bp direct repeat]”, in series [2] (BeF3- and Mg2+ (phosphorylation mimic)), the dissociation constant (Kd) amounted to 596 nM. The binding result in series [2] (no BeF3-, no Mg2+) is recorded as “no binding”.

The term Kd denotes a measure of binding affinity in units of concentration.

Source of the values: article PMC10927774.
